The conditions of the data set: HPLC.

This is an account of results in article PMC7034945 (RSC Advances, 2019).

With “(S)-N-(1-((4-Methoxyphenyl)(methyl)amino)-1-oxo-3-phenylpropan-2-yl)-3-(1-(3-(thiophen-3-yl)propyl)-1H-1,2,3-triazol-4-yl)benzamide [III-15h]”, the “water solubility pH = 2.0, test 1” value (pH 2.0 phosphate buffer, first test) was 5.94 μg mL^−1. In addition, the “water solubility pH = 2.0, test 2” value (pH 2.0 phosphate buffer, second test) worked out at 5.85 μg mL^−1. The “water solubility pH = 7.0, test 1” value (pH 7.0, first test) amounted to 3.23 μg mL^−1. Besides, the “water solubility pH = 7.0, test 2” value (pH 7.0, second test) is reported as 3.29 μg mL^−1. For the setting “pH 7.4 phosphate buffer, first test”, the “water solubility pH = 7.4, test 1” value came to 3.01 μg mL^−1. In addition, the “water solubility pH = 7.4, test 2” value (pH 7.4 phosphate buffer, second test) was found to be 3.10 μg mL^−1.
